Literature values, collected in PubChem BioAssay AID977611.

What was measured:
[1] = molecular target: Epstein-Barr virus (EBV) dUTPase inactive mutant deleted of motif V; experiment: PubChem AID 977611; conditions: PDB protein-ligand complexes, literature Kd; protein: Epstein-Barr virus (EBV) dUTPase inactive mutant deleted of motif V; PDB entry 2WE3
[2] = molecular target: HIV-1 RNase H p15 with engineered E. coli loop; experiment: PubChem AID 977611; conditions: PDB protein-ligand complexes, literature Kd; protein: HIV-1 RNase H p15 with engineered E. coli loop; PDB entry 3QIN

Row | SMILES | Kd [1] [µM] | Kd [2] [µM]
1 | O=c1ccn([C@H]2C[C@H](O)[C@@H](COP(=O)(O)OP(=O)(O)OP(=O)(O)O)O2)c(=O)[nH]1 | 37 | 
2 | COc1ccc(Cc2nc(C(=O)O)c(O)c(=O)[nH]2)cc1Br |  | 0.136
